Source: ChEMBL document CHEMBL3988442, “University of Dundee, Small-Polar-MMV Screening Library” (2021).

Each number is a percent effect as filed. The controls that fix the scale are not given in the record; negative values are as filed. This is part of a subset picked to be rich in strong results. Two or more numbers in one place are separate tests of the same structure; such repeats can differ widely. A dash means the value is not listed here; it may have been measured.

Mtb cholesterol medium: 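Phenotypic screen: M. tuberculosis growth, cholesterol and DPPC medium, 4 days; the read-out is not stated. Compounds at 50 µM. The record gives no direction; compounds that gave an IC50 in retests scored well above the rest, so higher reads as more growth inhibition. About 69,000 compounds were tested under these conditions; 0.54% (about 370) showed 50% or more at least once.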
Mtb glucose medium: 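Growth of Mycobacterium tuberculosis over 3 days (7H9 medium with glucose and tyloxapol); the read-out is not stated. Concentration: 50 µM. Higher reads as more growth inhibition (inferred: compounds with an IC50 in retests scored well above the rest). Of about 69,000 compounds tested this way, about 760 (1.1%) reached 50% or more in at least one test.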

compound,Mtb cholesterol medium,Mtb glucose medium
Cc1ccc(C(=O)NS(C)(=O)=O)cc1-n1cccc1,-,32.2%
CCOc1ccc(N2CCCN=C2NC(=O)c2ccc(Cl)cc2)cc1,-10.21%,61.44%
c1cc(CN2CCCC(c3nnc(-c4cnccn4)o3)C2)ccn1 (centres unmarked),0.703%,-
O=C(CN1CCCC1Cn1cncn1)NCCOc1cccc(F)c1 (centres unmarked),-,58.47%
CCCn1ncc2c(C(=O)Nc3cnn(CC)c3C)cc(C3CC3)nc21,-,52.89%
CC(O)(CNc1ccc(Cl)c(C#N)n1)c1ccsc1 (centres unmarked),-,8.846%
COCc1noc(-c2nn(-c3ccc(F)c(F)c3)c3c2CCC3)n1,-,52.09%
COc1cccc(S(=O)(=O)CCN2CCN(CC(F)F)CC2)c1,5.971%,-
Cc1noc(CNC(=O)NCCc2ccc(Cl)cc2)n1,-8.119%,-
O=C(NCCO)c1ccn(-c2ccc3ccccn23)n1,-,-26.54%
CCc1noc(-c2ccc(SCC(=O)O)nc2)n1,-,-15.07%
Cc1ccc(-c2nnn(CCN3C(=O)CCC3=O)n2)cc1,-15.59%,-25.94%
CCCc1nn(Cc2csc(C(C)C)n2)c(=O)o1,53.39%,53.02%
CC(=O)Nc1nc(-c2ccccc2)c[nH]1,-3.051%,-10.64%
c1cnn(CC2CCN(c3nc(C4CC4)nc4c3CCNCC4)CC2)c1,-,12.63%
CCCC(C)(O)c1cc(C(N)=O)no1 (centres unmarked),-4.677%,-14.82% & 0.8798%
O=C(O)C(F)(F)F.[H][C@@]12CCN(CCc3ccccc3)C[C@]1([H])[C@@H](CNS(C)(=O)=O)OC2,57.57%,-
CC(C)Oc1ccc(CSc2nnc(CN3CCCC3=O)o2)cc1,56.34%,63.66%
CCN(CC)CCn1cnc(-c2ccccc2)c1-c1ncc[nH]1,-,-4.87% & 95.17%
COCc1ccccc1CNC(=O)CNc1ccccc1C(C)=O,-,-12.01%
CCc1ccc2nc(NCCCN(CCO)CCO)cc(C)c2c1,-,55.29%
CCC1CN(CC(=O)NCCN2CCCC2)c2ccccc2S1 (centres unmarked),-,34.06%
CN(CCCc1cnn(C)c1)C(=O)Nc1cccc2[nH]nnc12,-17.44%,-9.774%
O=C(CCNc1ncccn1)NCc1ccc(Br)s1,-,7.005%
CN1CCN(C(=O)CCc2cc(Br)cs2)CC1,27.19% & 32.71%,-
CS(=O)(=O)c1cccc2c1CCCN2C(=O)Cc1cccc(F)c1,-,17.26%
CC(C)N1CCC(CC(=O)NC[C@H]2CCc3ccccc3O2)CC1,0.7685%,-18.07% & 6.247%
CN1CCCC(c2cccc(-c3cccc(C(F)(F)F)c3)n2)C1 (centres unmarked),54.47%,64.12%
Cc1noc(COCC(=O)Nc2cc(C)c(Br)cn2)n1,-,51.33%
Cc1ccc(-c2nc(C(=O)N3CCOCC3)cs2)c(C)c1,-,-14.33%
CC1CCCCN1C(=O)Cn1cnc(C#N)n1 (centres unmarked),-,-31.9% & 8.05%
CCN1CC2(CC1=O)CN(Cc1cnn(C)c1)CCN(C(C)=O)C2.O=C(O)C(F)(F)F (centres unmarked),-7.205% & 15.21%,-
CCc1ccccc1CNC(=O)NCc1cnn(C)c1,-28.61%,5.681% & 21.28%
CCn1nc(C)c2nc(C(C)C)nc(NC)c21,-,-9.703%
CN(Cc1nnc(C2CC2)o1)Cc1ccccc1N1CCOCC1,-,45.83% & 31.81%
COCC(=O)NC[C@H]1CC[C@H](c2ccnc3ncnn32)CC1,-,-5.143%
CC(C(=O)O)N1CCc2onc(-c3ccc(F)c(F)c3)c2C1 (centres unmarked),-16.54%,-2.652% & 1.866%
Cc1cccc(CN2C[C@@H](CN3CCCN(C)CC3)[C@@H](CO)C2)n1,-26.94%,-
O=C(O)C(F)(F)F.c1csc(CNCC2COCc3c(-c4ccoc4)nnn3C2)n1 (centres unmarked),-,-11.91%
CN(C)c1ncc2c(n1)C1(CCN(Cc3ccccc3)C1)COC2.O=C(O)C(F)(F)F (centres unmarked),-,25.75%
CC(C)(C)c1nc(CN2CCC(c3ccnn3CCO)CC2)no1,-,102.5%
Cc1nnc(CCNC(=O)Nc2ccc(S(C)(=O)=O)cc2)[nH]1,-46.21%,-3.646%
COC(C)c1noc(CN2CCCNCC2)n1 (centres unmarked),-,13.93%
CCNC(=O)CCC(=O)NC(C)Cc1ccccc1Br (centres unmarked),-,35.94%
CCn1nnc2c1C(COCC(=O)N(C)C)CN(Cc1ccco1)C2.O=C(O)C(F)(F)F (centres unmarked),0.2022%,-

Repeated from the top, 6 entries:

Cc1ccc(C(=O)NS(C)(=O)=O)cc1-n1cccc1 gave Mtb glucose medium: 32.2%.
CCOc1ccc(N2CCCN=C2NC(=O)c2ccc(Cl)cc2)cc1 gave Mtb cholesterol medium: -10.21%; Mtb glucose medium: 61.44%.
c1cc(CN2CCCC(c3nnc(-c4cnccn4)o3)C2)ccn1 (centres unmarked) gave Mtb cholesterol medium: 0.703%.
O=C(CN1CCCC1Cn1cncn1)NCCOc1cccc(F)c1 (centres unmarked) gave Mtb glucose medium: 58.47%.
CCCn1ncc2c(C(=O)Nc3cnn(CC)c3C)cc(C3CC3)nc21 gave Mtb glucose medium: 52.89%.
CC(O)(CNc1ccc(Cl)c(C#N)n1)c1ccsc1 (centres unmarked) gave Mtb glucose medium: 8.846%.